From patent US6906198B1, “Antipicornaviral compounds, their preparation and use” (Agouron Pharmaceuticals, Inc., priority 1998, dated 2005)

How the values were obtained:
[1] = system: Coxsackievirus type B3 (CVB-3); assay: Anticoxsackieviral cell culture assay (XTT), CVB-3; assay type: cell-based; conditions: therapeutic index CC50/EC50, CVB-3
Procedure: (§1) Anticoxsackieviral Cell Culture Assay
(§2) Coxsackievirus types A-21 (CAV-21) and B3 (CVB-3) were purchased from American Type Culture Collection (ATCC, Rockville, Md.). Virus stocks were propagated and antiviral assays were performed in H1-HeLa cells (ATCC). Cells were grown in minimal essential medium with 10% fetal bovine serum (Life Technologies, Gaithersburg, Md.).
The ability of compounds to protect cells against either CAV-21 or CVB-3 infection was measured by the XTT dye reduction method. This method is described in Weislow et al., J. Natl. Cancer Inst. 1989, vol. 81, 577-586. H1-HeLa cells were infected with CAV-21 or CVB-3 at a multiplicity of infection (m.o.i.) of 0.025 or 0.075, respectively, or mock-infected with medium only. H1-HeLa cells were plated at 4×10^4 cells per well in a 96-well plate and incubated with appropriate concentrations of the test compound. One day (CVB-3) or two days (CAV-21) later, XTT/PMS was added to test plates and the amount of formazan produced was quantified spectrophotometrically at 450/650 nm. The EC50 was calculated as the concentration of compound that increased the formazan production in compound-treated, virus-infected cells to 50% of that produced by compound-free, uninfected cells. […] The therapeutic index (TI) was calculated by dividing the CC50 by the EC50. […]

HRV serotype 30 = assay: Antirhinoviral H1-HeLa cell culture assay (XTT), HRV-30; assay type: cell-based, human rhinovirus; conditions: therapeutic index CC50/EC50, HRV (30)
Procedure: (§3) Antirhinoviral H1-HeLa Cell Culture Assay
(§4) In this cell protection assay, the ability of compounds to protect cells against HRV infection was measured by the XTT dye reduction method, which is described in Weislow et al., J. Natl. Cancer Inst. 1989, vol. 81, 577-586.
(§5) H1-HeLa cells were infected with HRV-14 at a multiplicity of infection (m.o.i.) of 0.13 (virus particles/cell) or mock-infected with medium only. Infected or mock-infected cells were resuspended at 8×10^5 cells per mL, and incubated with appropriate concentrations of the compounds to be tested. Two days later, XTT/PMS was added to test plates and the amount of formazan produced was quantified spectrophotometrically at 450/650 nm. The EC50 value was calculated as the concentration of compound that increased the percentage of formazan production in compound-treated, virus-infected cells to 50% of that produced by compound-free, mock-infected cells. The 50% cytotoxic dose (CC50) was calculated as the concentration of compound that decreased the percentage of formazan produced in compound-treated, mock-infected cells to 50% of that produced by compound-free, mock-infected cells. The therapeutic index (TI) was calculated by dividing the CC50 value by the EC50 value.
(§6) All strains of human rhinovirus (HRV) for use in this assay were purchased from American Type Culture Collection (ATCC), except for HRV serotype-14 (produced from the infectious cDNA clone constructed by Dr. Robert Rueckert, Institute for Molecular Virology, University of Wisconsin, Madison, Wis.). HRV stocks were propagated and viral assays were performed in H1-HeLa cells (ATCC). Cells were grown in minimal essential medium with 10% fetal bovine serum, available from Life Technologies (Gaithersburg, Md.).
(§7) The compounds were tested against control compounds WIN 51711, WIN 52084, and WIN 54954 (obtained from Sterling-Winthrop Pharmaceuticals), Pirodavir (obtained from Janssen Pharmaceuticals), and Pleconaril (prepared according to the method described in Diana et al., J. Med. Chem 1995, vol. 38, 1355). Antiviral data obtained for the test compounds are shown in Tables 1 and 3, where all data are for HRV serotype-14 unless otherwise noted in parentheses.

[2] = system: enterovirus type 70 (EV 70); assay: Anti-enteroviral cell culture assay (XTT), EV 70; assay type: cell-based; conditions: therapeutic index CC50/EC50, EV-70
Procedure: (§8) Anti-Echoviral and -Enteroviral Cell Culture Assays
(§9) Echovirus type 11 (EV 11) and enterovirus type 70 (EV 70) were purchased from ATCC (Rockville, Md.). Virus stocks were propagated and antiviral assays were performed in MRC-5 cells (ATCC). Cells were grown in minimal essential medium with 10% fetal bovine serum (Life Technologies, Gaithersburg, Md.).
(§10) The ability of compounds to protect cells against either EV 11 or EV 70 infection was measured by the XTT dye reduction method (Weislow et al., J. Natl. Cancer Inst. 1989, vol. 81, 577-586). MRC-5 cells were infected with EV 11 or EV 70 at an m.o.i. of 0.003 or 0.004, respectively, or mock-infected with medium only. Infected or uninfected cells were added at 1×10^4 cells per well and incubated with appropriate concentrations of compound. Four days later, XTT/PMS was added to test plates, and the amount of formazan produced was quantified spectrophotometrically at 450/650 nm. The EC50 was calculated as the concentration of compound that increased the formazan production in compound-treated, virus-infected cells to 50% of that produced by compound-free, uninfected cells. The 50% cytotoxic dose (CC50) was calculated as the concentration of compound that decreased formazan production in compound-treated, uninfected cells to 50% of that produced in compound-free, uninfected cells. The therapeutic index (TI) was calculated by dividing the CC50 by the EC50.
(§11) The compounds were tested against control compounds Pirodavir (obtained from Janssen Pharmaceuticals) and Pleconaril (prepared according to Diana et al., J. Med. Chem. 1995, vol. 38, 1355). Antiviral data obtained for the test compounds against strain EV 11 and EV 70 are shown below in Table 5.

HRV serotype 17 = assay: Antirhinoviral H1-HeLa cell culture assay (XTT), HRV-17; assay type: cell-based, human rhinovirus; conditions: therapeutic index CC50/EC50, HRV (17)
Procedure: as §3, §4, §5, §6, §7

HRV serotype 13 = assay: Antirhinoviral H1-HeLa cell culture assay (XTT), HRV-13; assay type: cell-based, human rhinovirus; conditions: therapeutic index CC50/EC50, HRV (13)
Procedure: as §3, §4, §5, §6, §7

HRV serotype 89 = assay: Antirhinoviral H1-HeLa cell culture assay (XTT), HRV-89; assay type: cell-based, human rhinovirus; conditions: therapeutic index CC50/EC50, HRV (89)
Procedure: as §3, §4, §5, §6, §7

HRV serotype 3 = assay: Antirhinoviral H1-HeLa cell culture assay (XTT), HRV-3; assay type: cell-based, human rhinovirus; conditions: therapeutic index CC50/EC50, HRV (3)
Procedure: as §3, §4, §5, §6, §7

HRV serotype 12 = assay: Antirhinoviral H1-HeLa cell culture assay (XTT), HRV-12; assay type: cell-based, human rhinovirus; conditions: therapeutic index CC50/EC50, HRV (12)
Procedure: as §3, §4, §5, §6, §7

HRV serotype 39 = assay: Antirhinoviral H1-HeLa cell culture assay (XTT), HRV-39; assay type: cell-based, human rhinovirus; conditions: therapeutic index CC50/EC50, HRV (39)
Procedure: as §3, §4, §5, §6, §7

[3] = system: Echovirus type 11 (EV 11); assay: Anti-echoviral cell culture assay (XTT), EV 11; assay type: cell-based; conditions: therapeutic index CC50/EC50, EV-11
Procedure: as §8, §9, §10, §11

HRV serotype 1A = assay: Antirhinoviral H1-HeLa cell culture assay (XTT), HRV-1A; assay type: cell-based, human rhinovirus; conditions: therapeutic index CC50/EC50, HRV (1A)
Procedure: as §3, §4, §5, §6, §7

[4] = system: Coxsackievirus type A-21 (CAV-21); assay: Anticoxsackieviral cell culture assay (XTT), CAV-21; assay type: cell-based; conditions: therapeutic index CC50/EC50, CAV-21
Procedure: as §1, §2
The ability of compounds to protect cells against either CAV-21 or CVB-3 infection was measured by the XTT dye reduction method. This method is described in Weislow et al., J. Natl. Cancer Inst. 1989, vol. 81, 577-586. H1-HeLa cells were infected with CAV-21 or CVB-3 at a multiplicity of infection (m.o.i.) of 0.025 or 0.075, respectively, or mock-infected with medium only. H1-HeLa cells were plated at 4×10^4 cells per well in a 96-well plate and incubated with appropriate concentrations of the test compound. One day (CVB-3) or two days (CAV-21) later, XTT/PMS was added to test plates and the amount of formazan produced was quantified spectrophotometrically at 450/650 nm. The EC50 was calculated as the concentration of compound that increased the formazan production in compound-treated, virus-infected cells to 50% of that produced by compound-free, uninfected cells. The 50% cytotoxic dose (CC50) was calculated as the concentration of compound that decreased formazan production in compound-treated, uninfected cells to 50% of that produced in compound-free, uninfected cells. The therapeutic index (TI) was calculated by dividing the CC50 by the EC50.
The compounds were tested against control compounds WIN 54954 (obtained from Sterling-Winthrop Pharmaceuticals), Pirodavir (obtained from Janssen Pharmaceuticals), and Pleconaril (prepared according to Diana et al., J. Med. Chem. 1995, 38, 1355).

HRV-14 = assay: Antirhinoviral H1-HeLa cell culture assay (XTT), HRV-14; assay type: cell-based, human rhinovirus; conditions: therapeutic index CC50/EC50, HRV serotype-14
Procedure: as §3, §4, §5, §6, §7

HRV serotype 25 = assay: Antirhinoviral H1-HeLa cell culture assay (XTT), HRV-25; assay type: cell-based, human rhinovirus; conditions: therapeutic index CC50/EC50, HRV (25)
Procedure: as §3, §4, §5, §6
(§12) The compounds were tested against control compounds WIN 51711, WIN 52084, and WIN 54954 (obtained from Sterling-Winthrop Pharmaceuticals), Pirodavir (obtained from Janssen Pharmaceuticals), and Pleconaril (prepared according to the method described in Diana et al., J. Med. Chem 1995, vol. 38, 1355). […]

HRV serotype 9 = assay: Antirhinoviral H1-HeLa cell culture assay (XTT), HRV-9; assay type: cell-based, human rhinovirus; conditions: therapeutic index CC50/EC50, HRV (9)
Procedure: as §3, §4, §5, §6, §12

HRV serotype 87 = assay: Antirhinoviral H1-HeLa cell culture assay (XTT), HRV-87; assay type: cell-based, human rhinovirus; conditions: therapeutic index CC50/EC50, HRV (87)
Procedure: as §3, §4, §5, §6, §12

HRV serotype 2 = assay: Antirhinoviral H1-HeLa cell culture assay (XTT), HRV-2; assay type: cell-based, human rhinovirus; conditions: therapeutic index CC50/EC50, HRV (2)
Procedure: as §3, §4, §5, §6, §7

HRV serotype 10 = assay: Antirhinoviral H1-HeLa cell culture assay (XTT), HRV-10; assay type: cell-based, human rhinovirus; conditions: therapeutic index CC50/EC50, HRV (10)
Procedure: as §3, §4, §5, §6, §7

HRV serotype 38 = assay: Antirhinoviral H1-HeLa cell culture assay (XTT), HRV-38; assay type: cell-based, human rhinovirus; conditions: therapeutic index CC50/EC50, HRV (38)
Procedure: as §3, §4, §5, §6, §12

HRV serotype 16 = assay: Antirhinoviral H1-HeLa cell culture assay (XTT), HRV-16; assay type: cell-based, human rhinovirus; conditions: therapeutic index CC50/EC50, HRV (16)
Procedure: as §3, §4, §5, §6, §7

SMILES | TI [1] | TI (HRV serotype 30) | TI [2] | TI (HRV serotype 17) | TI (HRV serotype 13) | TI (HRV serotype 89) | TI (HRV serotype 3) | TI (HRV serotype 12) | TI (HRV serotype 39) | TI [3] | TI (HRV serotype 1A) | TI [4] | TI (HRV-14) | TI (HRV serotype 25) | TI (HRV serotype 9) | TI (HRV serotype 87) | TI (HRV serotype 2) | TI (HRV serotype 10) | TI (HRV serotype 38) | TI (HRV serotype 16)
CCOC(=O)/C=C/[C@H](C[C@@H]1CCNC1=O)NC(=O)[C@H](Cc1ccc(F)cc1)NC(=O)[C@@H](NC(=O)c1cc(C)on1)C(C)C [(A-5), Ethyl-3-{(5′-Methylisoxazole-3′-carbonyl)-L-Val-L-(4-F-Phe)-L-((S)-Pyrrol-Ala)}-E-Propenoate] | >10 | >166 | >250 | >500 | >500 | >500 | >200 | >166 | >500 | >125 | >333 | >43 | – | – | – | – | – | – | – | –
CCOC(=O)/C=C/[C@H](C[C@@H]1CCNC1=O)NC(=O)[C@H](Cc1ccc(F)cc1)NC(=O)[C@@H](NC(=O)c1cc(C)on1)C(C)(C)C [(A-7), Ethyl-3-{(5′-Methylisoxazole-3′-carbonyl)-L-α-(t-Butyl-Gly)-L-(4-F-Phe)-L-((S)-Pyrrol-Ala)}-E-Propenoate] | – | >111 | – | >500 | >333 | >500 | >500 | >143 | >500 | – | >333 | – | >2500 | >50 | >250 | >16 | >500 | >166 | >58 | >250
CCOC(=O)/C=C/[C@H](C[C@@H]1CCNC1=O)NC(=O)[C@H](Cc1ccc(F)cc1)OC(=O)[C@@H](NC(=O)c1cc(C)on1)C(C)C [(C-2), Ethyl-3-{(5′-Methylisoxazole-3′-carbonyl)-L-Val-O-L-(4-F-Phe)-L-((S)-Pyrrol-Ala)}-E-Propenoate] | – | >333 | – | >1428 | >1428 | >2500 | >500 | >250 | >1000 | – | >1000 | – | >5000 | >142 | >1000 | >500 | >2500 | >500 | >200 | >1000
CCOC(=O)c1ccc(OCCC2CCN(c3ccc(C)nn3)CC2)cc1 [Pirodavir, reference compound] | – | – | >167 | – | – | – | – | – | – | >3 | – | – | >300 | – | – | – | – | – | – | –
Cc1cc(CCCOc2c(C)cc(-c3noc(C(F)(F)F)n3)cc2C)on1 [Pleconaril, reference compound] | – | – | – | – | – | – | – | – | – | >62 | – | >107 | >1000 | – | – | – | – | – | – | –
